Results reported in ChEMBL document CHEMBL5346973 (J Med Chem, 2023).

Protein sequences, listed by entry. Tags and fused reporters are not part of them. Residues count along the entry.
UniProt P04756, 21-457 limits assumed: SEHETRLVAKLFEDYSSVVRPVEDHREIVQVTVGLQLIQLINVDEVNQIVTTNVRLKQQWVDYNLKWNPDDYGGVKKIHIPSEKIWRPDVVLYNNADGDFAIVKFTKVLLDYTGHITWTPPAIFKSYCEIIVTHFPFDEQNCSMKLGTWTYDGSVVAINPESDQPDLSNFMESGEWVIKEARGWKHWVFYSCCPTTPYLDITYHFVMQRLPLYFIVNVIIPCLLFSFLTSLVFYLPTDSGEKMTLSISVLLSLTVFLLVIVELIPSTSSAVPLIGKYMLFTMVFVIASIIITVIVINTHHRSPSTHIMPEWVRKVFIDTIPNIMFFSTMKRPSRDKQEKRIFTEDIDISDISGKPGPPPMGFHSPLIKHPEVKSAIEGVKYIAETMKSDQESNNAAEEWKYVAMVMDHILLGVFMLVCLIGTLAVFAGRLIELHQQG
UniProt P09690, 24-501 limits assumed: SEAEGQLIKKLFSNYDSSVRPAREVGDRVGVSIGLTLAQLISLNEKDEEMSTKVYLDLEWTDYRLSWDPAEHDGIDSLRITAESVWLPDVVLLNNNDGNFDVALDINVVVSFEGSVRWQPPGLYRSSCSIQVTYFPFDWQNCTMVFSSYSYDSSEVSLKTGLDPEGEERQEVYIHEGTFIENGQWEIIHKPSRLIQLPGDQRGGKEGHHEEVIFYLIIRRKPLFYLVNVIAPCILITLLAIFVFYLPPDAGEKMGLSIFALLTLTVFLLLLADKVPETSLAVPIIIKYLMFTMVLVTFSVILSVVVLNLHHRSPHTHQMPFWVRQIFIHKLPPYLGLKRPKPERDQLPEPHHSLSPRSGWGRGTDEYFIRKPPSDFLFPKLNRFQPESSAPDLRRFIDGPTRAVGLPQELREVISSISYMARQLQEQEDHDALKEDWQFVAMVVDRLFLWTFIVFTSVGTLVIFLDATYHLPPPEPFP
UniProt P02716, 25-520 limits assumed: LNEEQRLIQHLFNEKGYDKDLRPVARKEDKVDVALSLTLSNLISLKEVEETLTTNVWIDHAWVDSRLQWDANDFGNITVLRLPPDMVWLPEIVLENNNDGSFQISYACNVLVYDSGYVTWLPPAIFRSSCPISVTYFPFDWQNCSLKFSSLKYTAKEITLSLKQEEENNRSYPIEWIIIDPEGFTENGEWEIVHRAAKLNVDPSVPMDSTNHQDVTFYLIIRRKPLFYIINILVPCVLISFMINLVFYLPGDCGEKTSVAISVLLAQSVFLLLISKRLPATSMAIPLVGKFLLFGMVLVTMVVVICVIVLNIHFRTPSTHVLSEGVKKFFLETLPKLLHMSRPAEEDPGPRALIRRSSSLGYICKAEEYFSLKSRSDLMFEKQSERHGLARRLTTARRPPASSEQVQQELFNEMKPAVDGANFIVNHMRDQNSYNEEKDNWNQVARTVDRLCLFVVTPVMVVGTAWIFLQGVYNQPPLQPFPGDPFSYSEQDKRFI
UniProt P20782, 21-493 limits assumed: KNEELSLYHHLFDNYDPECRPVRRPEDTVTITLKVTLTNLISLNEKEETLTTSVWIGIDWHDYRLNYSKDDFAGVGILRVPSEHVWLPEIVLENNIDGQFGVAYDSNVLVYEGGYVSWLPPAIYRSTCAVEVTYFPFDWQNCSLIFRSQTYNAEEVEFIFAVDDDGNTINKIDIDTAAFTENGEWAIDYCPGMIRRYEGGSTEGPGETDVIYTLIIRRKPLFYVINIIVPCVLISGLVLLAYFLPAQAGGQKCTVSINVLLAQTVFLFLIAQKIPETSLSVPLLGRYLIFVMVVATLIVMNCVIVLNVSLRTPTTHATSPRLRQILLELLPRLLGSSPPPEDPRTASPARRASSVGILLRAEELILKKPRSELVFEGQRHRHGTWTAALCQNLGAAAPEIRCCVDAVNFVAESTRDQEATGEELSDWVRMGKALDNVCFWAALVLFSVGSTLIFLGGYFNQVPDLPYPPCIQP

Target: Nicotinic acetylcholine receptor alpha1/beta1/epsilon/delta (Mus musculus, UniProt P04756+P09690+P02716+P20782)
Assay: Antagonist activity at mouse alpha1beta1deltaepsilon nACh receptor expressed in Xenopus oocyte assessed as inhibition of acetylcholine-induced response at -70 mV holding potential by voltage-clamp based electrophysiological assay

SMILES	IC50
CC[C@H](C)[C@@H]1NC(=O)[C@H](CCCNC(=N)N)NC(=O)[C@H](C)NC(=O)[C@@H](NC(=O)[C@H](Cc2ccc(O)cc2)NC(=O)[C@H](CCCNC(=N)N)NC(=O)[C@H](CCCNC(=N)N)NC(=O)[C@H](CCCNC(=N)N)NC(=O)[C@H](CCCNC(=N)N)NC(=O)[C@H](CC(=O)O)NC(=O)[C@H](Cc2ccc(O)cc2)NC(=O)[C@@H]2CCCN2C(=O)[C@H](CO)NC(=O)[C@H](CCCNC(=N)N)NC(=O)[C@@H]2CSSC[C@H](NC(=O)[C@@H](N)[C@@H](C)O)C(=O)N[C@@H](CCCNC(=N)N)C(=O)N[C@@H](CO)C(=O)N[C@@H](CO)C(=O)NCC(=O)N[C@@H](CCCNC(=N)N)C(=O)N[C@@H](Cc3ccc(O)cc3)C(=O)N2)CSSC[C@@H](C(=O)N[C@H](C(=O)O)C(C)C)NC(=O)[C@H](C)NC(=O)[C@H](CC(=O)O)NC(=O)[C@H]([C@@H](C)O)NC1=O	2150 nM
CC[C@H](C)[C@@H]1NC(=O)[C@H](C)NC(=O)[C@H](CCCNC(=N)N)NC(=O)[C@@H]2CSSC[C@H](NC(=O)[C@H](Cc3ccc(O)cc3)NC(=O)[C@H](CCCNC(=N)N)NC(=O)CNC(=O)[C@H](CO)NC(=O)[C@H](CO)NC(=O)[C@H](CCCNC(=N)N)NC(=O)[C@@H](NC(=O)[C@@H](N)[C@@H](C)O)CSSC[C@@H](C(=O)N[C@H](C(=O)O)C(C)C)NC(=O)[C@H](C)NC(=O)[C@H](CC(=O)O)NC(=O)[C@H]([C@@H](C)O)NC1=O)C(=O)N[C@@H](CCCNC(=N)N)C(=O)N[C@@H](CO)C(=O)N1CCC[C@H]1C(=O)N[C@@H](Cc1ccc(O)cc1)C(=O)N[C@@H](CC(=O)O)C(=O)N[C@@H](CCCNC(=N)N)C(=O)N[C@@H](CCCNC(=N)N)C(=O)N[C@@H](CCCNC(=N)N)C(=O)N[C@@H](CCCNC(=N)N)C(=O)N[C@@H](Cc1ccc(O)cc1)C(=O)N2	2330 nM
CC[C@H](C)[C@@H]1NC(=O)[C@H](CCCNC(=N)N)NC(=O)[C@H](CCCNC(=N)N)NC(=O)[C@@H]2CSSC[C@H](NC(=O)[C@H](Cc3ccc(O)cc3)NC(=O)[C@H](CCCNC(=N)N)NC(=O)CNC(=O)[C@H](CO)NC(=O)[C@H](CO)NC(=O)[C@H](CCCNC(=N)N)NC(=O)[C@@H](NC(=O)[C@@H](N)[C@@H](C)O)CSSC[C@@H](C(=O)N[C@H](C(=O)O)C(C)C)NC(=O)[C@H](C)NC(=O)[C@H](CC(=O)O)NC(=O)[C@H]([C@@H](C)O)NC1=O)C(=O)N[C@@H](CCCNC(=N)N)C(=O)N[C@@H](CO)C(=O)N[C@@H](C)C(=O)N[C@@H](Cc1ccc(O)cc1)C(=O)N[C@@H](CC(=O)O)C(=O)N[C@@H](CCCNC(=N)N)C(=O)N[C@@H](CCCNC(=N)N)C(=O)N[C@@H](CCCNC(=N)N)C(=O)N[C@@H](CCCNC(=N)N)C(=O)N[C@@H](Cc1ccc(O)cc1)C(=O)N2	1040 nM
CC[C@H](C)[C@@H]1NC(=O)[C@H](CCCNC(=N)N)NC(=O)[C@H](CCCNC(=N)N)NC(=O)[C@@H](NC(=O)[C@H](Cc2ccc(O)cc2)NC(=O)[C@H](CCCNC(=N)N)NC(=O)[C@H](CCCNC(=N)N)NC(=O)[C@H](CCCNC(=N)N)NC(=O)[C@H](CCCNC(=N)N)NC(=O)[C@H](CC(=O)O)NC(=O)[C@H](Cc2ccc(O)cc2)NC(=O)[C@@H]2CCCN2C(=O)[C@H](CO)NC(=O)[C@H](CCCNC(=N)N)NC(=O)[C@@H]2CSSC[C@H](NC(=O)[C@@H](N)[C@@H](C)O)C(=O)N[C@@H](CCCNC(=N)N)C(=O)N[C@@H](CO)C(=O)N[C@@H](CO)C(=O)NCC(=O)N[C@@H](CCCNC(=N)N)C(=O)N[C@@H](Cc3ccc(O)cc3)C(=O)N2)CSSC[C@@H](C(=O)N[C@H](C(=O)O)C(C)C)NC(=O)[C@H](C)NC(=O)[C@@H](C)NC(=O)[C@H]([C@@H](C)O)NC1=O	3320 nM
CC[C@H](C)[C@@H]1NC(=O)[C@H](CCCNC(=N)N)NC(=O)[C@H](CCCNC(=N)N)NC(=O)[C@@H]2CSSC[C@H](NC(=O)[C@H](Cc3ccc(O)cc3)NC(=O)[C@H](C)NC(=O)CNC(=O)[C@H](CO)NC(=O)[C@H](CO)NC(=O)[C@H](CCCNC(=N)N)NC(=O)[C@@H](NC(=O)[C@@H](N)[C@@H](C)O)CSSC[C@@H](C(=O)N[C@H](C(=O)O)C(C)C)NC(=O)[C@H](C)NC(=O)[C@H](CC(=O)O)NC(=O)[C@H]([C@@H](C)O)NC1=O)C(=O)N[C@@H](CCCNC(=N)N)C(=O)N[C@@H](CO)C(=O)N1CCC[C@H]1C(=O)N[C@@H](Cc1ccc(O)cc1)C(=O)N[C@@H](CC(=O)O)C(=O)N[C@@H](CCCNC(=N)N)C(=O)N[C@@H](CCCNC(=N)N)C(=O)N[C@@H](CCCNC(=N)N)C(=O)N[C@@H](CCCNC(=N)N)C(=O)N[C@@H](Cc1ccc(O)cc1)C(=O)N2	3500 nM
CC[C@H](C)[C@@H]1NC(=O)[C@H](CCCNC(=N)N)NC(=O)[C@H](CCCNC(=N)N)NC(=O)[C@@H](NC(=O)[C@H](Cc2ccc(O)cc2)NC(=O)[C@H](CCCNC(=N)N)NC(=O)[C@H](CCCNC(=N)N)NC(=O)[C@H](CCCNC(=N)N)NC(=O)[C@H](CCCNC(=N)N)NC(=O)[C@H](CC(=O)O)NC(=O)[C@H](Cc2ccc(O)cc2)NC(=O)[C@@H]2CCCN2C(=O)[C@H](CO)NC(=O)[C@H](CCCNC(=N)N)NC(=O)[C@@H]2CSSC[C@H](NC(=O)[C@@H](N)[C@@H](C)O)C(=O)N[C@@H](CCCNC(=N)N)C(=O)N[C@@H](CO)C(=O)N[C@@H](CO)C(=O)NCC(=O)N[C@@H](C)C(=O)N[C@@H](Cc3ccc(O)cc3)C(=O)N2)CSSC[C@@H](C(=O)N[C@H](C(=O)O)C(C)C)NC(=O)[C@H](C)NC(=O)[C@H](CC(=O)O)NC(=O)[C@H]([C@@H](C)O)NC1=O	2930 nM
CC[C@H](C)[C@@H]1NC(=O)[C@H](CCCNC(=N)N)NC(=O)[C@H](CCCNC(=N)N)NC(=O)[C@@H](NC(=O)[C@H](Cc2ccc(O)cc2)NC(=O)[C@H](CCCNC(=N)N)NC(=O)[C@H](CCCNC(=N)N)NC(=O)[C@H](CCCNC(=N)N)NC(=O)[C@H](CCCNC(=N)N)NC(=O)[C@H](C)NC(=O)[C@H](Cc2ccc(O)cc2)NC(=O)[C@@H]2CCCN2C(=O)[C@H](CO)NC(=O)[C@H](CCCNC(=N)N)NC(=O)[C@@H]2CSSC[C@H](NC(=O)[C@@H](N)[C@@H](C)O)C(=O)N[C@@H](CCCNC(=N)N)C(=O)N[C@@H](CO)C(=O)N[C@@H](CO)C(=O)NCC(=O)N[C@@H](CCCNC(=N)N)C(=O)N[C@@H](Cc3ccc(O)cc3)C(=O)N2)CSSC[C@@H](C(=O)N[C@H](C(=O)O)C(C)C)NC(=O)[C@H](C)NC(=O)[C@H](CC(=O)O)NC(=O)[C@H]([C@@H](C)O)NC1=O	800 nM
CC[C@H](C)[C@@H]1NC(=O)[C@H](CCCNC(=N)N)NC(=O)[C@H](CCCNC(=N)N)NC(=O)[C@@H](NC(=O)[C@H](Cc2ccc(O)cc2)NC(=O)[C@H](CCCNC(=N)N)NC(=O)[C@H](CCCNC(=N)N)NC(=O)[C@H](CCCNC(=N)N)NC(=O)[C@H](CCCNC(=N)N)NC(=O)[C@H](CC(=O)O)NC(=O)[C@H](C)NC(=O)[C@@H]2CCCN2C(=O)[C@H](CO)NC(=O)[C@H](CCCNC(=N)N)NC(=O)[C@@H]2CSSC[C@H](NC(=O)[C@@H](N)[C@@H](C)O)C(=O)N[C@@H](CCCNC(=N)N)C(=O)N[C@@H](CO)C(=O)N[C@@H](CO)C(=O)NCC(=O)N[C@@H](CCCNC(=N)N)C(=O)N[C@@H](Cc3ccc(O)cc3)C(=O)N2)CSSC[C@@H](C(=O)N[C@H](C(=O)O)C(C)C)NC(=O)[C@H](C)NC(=O)[C@H](CC(=O)O)NC(=O)[C@H]([C@@H](C)O)NC1=O	970 nM
